Measured values: paper PMC13232947

Target: dimeric His-tagged Rhinolophus cornutus bat ACE2 (bACE2_(R.cor)) (Rhinolophus cornutus)
Assay: BLI

BANAL-20-236-RBD-Fc
Kd: 13.1 nM
